Compound potency records, mixed from different reports. Data source: NIAID ChemDB in PubChem.

Shared fields: tests in culture; organism: Hepatitis C virus; measure: EC50

Neighbouring rows are from separate reports. ECn: concentration that inhibits the pathogen or its effect by n%. Two numbers with a dash give a range or band. Blank or dashed fields: not listed here.

compound	strain or isolate	method	setting	value
CCCCCCCCCc1ccc(N(C(=O)OCOP(=O)(O)O)c2nc(-c3cccnc3)c(F)s2)cc1C(F)(F)F	-	-	-	<1 µM
CC1(C)CC(=O)C2=C(C1)Nc1c(O)cccc1NC2c1ccc(C#N)cc1F	1b	luciferase / reporter gene / replicon	-	33.35 µM
NC(=O)COc1ccc2c(c1)S(=O)(=O)N=C(c1c(O)c3cc(F)ccc3n(CCC3CC3)c1=O)N2	1b 51499	replicon	-	0.0029 µM
O=C(O)c1c(-c2ccc[nH]c2=O)c2c3occc3ccc2n1Cc1ccc(F)cc1F	-	replicon	-	<0.5 µM
CCCCCCCCOc1ccc(N(C(=O)CNC(=O)OC(C)(C)C)c2nc(-c3cccnc3)c(F)s2)cc1C(F)(F)F	-	-	-	<1 µM
Nc1cc(Cn2c(C(=O)O)c(-c3ccccc3F)c3c4ccccc4ccc32)ncn1	-	replicon	-	>10 µM
COc1nc(N)nc2c1ncn2[C@@H]1O[C@H](COP(=O)(N[C@@H](C)C(=O)OC(C)C)Oc2ccccc2)[C@@H](O)[C@@]1(C)F	2a	replicon	83 d	0.067 µM
N#CC1(NC(=O)c2ccc(-c3ccc4nc(NCc5ccc(S(N)(=O)=O)cc5)nc(NCC(F)(F)F)c4n3)cc2)CC1	-	replicon	-	<0.1 µM
Cc1cc(-c2cc(N(C(=O)C3CCC(C)CC3)C(C)C)c(C(=O)O)s2)ncc1NC(=O)c1cscn1	1b	replicon	-	<0.5 µM
CCCCCOc1ccc(N(C(=O)OC)c2nc(-c3cccnc3)cs2)cc1C(F)(F)F	-	-	-	<1 µM
O=C(O)c1c(-c2ccc[nH]c2=O)c2c3occc3ccc2n1Cc1ccccc1F	-	replicon	-	0.5–1.5 µM
NS(=O)(=O)c1ccc(CNc2nc(NCC(F)(F)F)c3nc(-c4cn[nH]c4)ccc3n2)cc1	-	replicon	-	<0.1 µM
COc1ccc2c(c1)c(=O)c(-c1noc(Cc3ccccc3)n1)cn2Cc1ccc(Cl)cc1	1b	replicon	-	>10 µM
CC1(C)CC(=O)C2=C(C1)Nc1c(O)cccc1NC2c1cnc(Oc2ccccc2Br)s1	1b	luciferase / reporter gene / replicon	-	13.17 µM
O=C(O)c1c(-c2ccc[nH]c2=O)c2c3occc3c(F)cc2n1Cc1ccc2[nH]c(=O)[nH]c2c1	-	replicon	-	<0.5 µM
Cc1cn(-c2cc3c(cc2F)c(=O)c(-c2noc(Cc4ccccc4)n2)cn3Cc2ccc(C(F)(F)F)cc2F)cn1	1b	replicon	-	>10 µM
CCOc1nc(NCc2ccc(F)cc2)nc2ccc(-c3cnc(NC(=O)C4CC4)nc3)nc12	-	replicon	-	<0.1 µM
O=c1c(-c2ncc(Cc3ccccc3)o2)cn(Cc2ccc(Cl)cc2)c2ccc(OCCN3CCOCC3)cc12	1b	replicon	-	<10 µM
CC1(C)CC(=O)C2=C(C1)Nc1c(O)cccc1N(C(=O)CCc1ccccc1)C2c1ccc(Cl)cc1Cl	1b	luciferase / reporter gene / replicon	-	2.23 µM
O=c1c(-c2noc(Cc3ccccc3)n2)cn(Cc2ccc(C(F)(F)F)cc2)c2cc(N3CCCNCC3)c(F)cc12	1b	replicon	-	<2 µM
CCCCCOc1ccc(N(C)c2nc(C(=O)O)cs2)cc1C(F)(F)F	-	-	-	<1 µM
CC(C)C(=O)N1c2cccc(O)c2NC2=C(C(=O)CC(C)(C)C2)C1c1ccc(OCc2ccccc2)cc1F	1b	luciferase / reporter gene / replicon	-	1.39 µM
CN(C)c1cc2c(cc1F)c(=O)c(-c1noc(C(C)(C)c3ccccc3)n1)cn2Cc1ccc(C(F)(F)F)cc1	1b	replicon	-	<2 µM
Cc1nc(C(=O)Nc2ccc(-c3cc(N(C(=O)C4CCC(C)CC4)C(C)C)c(C(=O)O)s3)cc2)cs1	1a	replicon	-	<0.5 µM
O=C(O)c1c(-c2ccc[nH]c2=O)c2c3occc3c(F)cc2n1Cc1cc(=O)[nH]cc1F	-	replicon	-	<0.5 µM
CCCCCN(C)c1ccc(N(C(=O)c2cc(C)on2)c2nc(-c3cccnc3)cs2)cc1C(F)(F)F	-	-	-	<1 µM
Cc1cc(C(=O)Nc2ccc(-c3cc(N(C(=O)C4CCC(C)CC4)C(C)C)c(C(=O)O)s3)cc2)n[nH]1	1a	replicon	-	<0.5 µM
CC1(C)CC(=O)C2=C(C1)Nc1c(O)cccc1NC2c1cccc2ccccc12	1b	luciferase / reporter gene / replicon	-	>32 µM
CCCCCCCCOc1ccc(N(COC(=O)C(C)(C)C)c2nc(-c3cccnc3)c(F)s2)cc1C(F)(F)F	-	-	-	<1 µM
CCOc1nc(NCc2ccc(F)cc2)nc2ccc(-c3cccc(N(CCO)S(C)(=O)=O)c3)nc12	-	replicon	-	<0.1 µM
CC1CCC(C(=O)N(c2cc(-c3ccc(NC(=O)c4ncco4)cc3)sc2C(=O)O)C(C)C)CC1	1a	replicon	-	<0.5 µM
CN1CCN(c2cc3c(cc2F)c(=O)c(-c2nnc(Cc4ccccc4)o2)cn3Cc2ccc(C(F)(F)F)cc2F)CC1	1b	replicon	-	<2 µM
CCOc1nc(NCc2ccc(S(N)(=O)=O)cc2)nc2ccc(-c3ccc(C(=O)NC4CC4)cc3)nc12	-	replicon	-	<0.1 µM
CC1(C)CC(=O)C2=C(C1)Nc1c(O)cccc1N(C(=O)c1ccc3ncccc3n1)C2c1ccc(OCc2ccccc2)cc1F	1b	luciferase / reporter gene / replicon	-	0.4 µM
CCCCOc1ccc(N(C(N)=O)c2nc(-c3ccccn3)cs2)cc1C(F)(F)F	-	-	-	<1 µM
CC1(C)CC(=O)C2=C(C1)Nc1c(O)cccc1N(C(=O)CCC(=O)N1CCC(N3CCCC3)CC1)C2c1ccc(OCc2ccccc2)cc1Cl	1b	luciferase / reporter gene / replicon	-	44.65 µM
Cc1nocc1C(=O)Nc1ccc(-c2cc(N(C(=O)C3CCC(C)CC3)C(C)C)c(C(=O)O)s2)cc1	1a	replicon	-	<0.5 µM
O=C(O)c1c(-c2ccc[nH]c2=O)c2c3occc3c(F)cc2n1Cc1cc2[nH]cnc2cc1Cl	-	replicon	-	<0.5 µM
CC1(C)CC(=O)C2=C(C1)Nc1c(O)cccc1NC2c1ccc(Cl)c(Cl)c1	1b	luciferase / reporter gene / replicon	-	15.8 µM